## Kdimer by position in the HIV-1 leader RNA

From the data files of Ye et al. 2022, doi:10.1038/s41594-022-00746-2.

RNA: 5' end of the HIV-1 NL4-3 genome, made in vitro. Positions 1-437 read:
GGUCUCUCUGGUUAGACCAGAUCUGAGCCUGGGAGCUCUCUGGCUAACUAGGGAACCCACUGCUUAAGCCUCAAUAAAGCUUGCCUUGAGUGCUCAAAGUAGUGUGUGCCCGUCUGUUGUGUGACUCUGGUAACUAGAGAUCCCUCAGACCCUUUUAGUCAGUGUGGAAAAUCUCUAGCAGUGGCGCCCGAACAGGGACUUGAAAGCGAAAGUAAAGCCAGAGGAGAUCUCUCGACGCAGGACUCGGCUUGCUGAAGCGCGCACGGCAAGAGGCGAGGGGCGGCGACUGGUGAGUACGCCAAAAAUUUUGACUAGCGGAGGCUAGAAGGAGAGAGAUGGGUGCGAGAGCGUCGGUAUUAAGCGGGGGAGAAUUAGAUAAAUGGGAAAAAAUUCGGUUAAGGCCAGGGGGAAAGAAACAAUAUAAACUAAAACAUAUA

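Mutant RNA libraries with 1G, 2G or 3G starts, with or without cap, were folded at 37 °C for 30 min. High salt was 300 mM KCl and 5 mM MgCl2, low salt 40 mM KCl and 0.1 mM MgCl2; monomer and dimer were parted on a native gel. Kdimer compares mutation frequencies in monomer and dimer, corrected for sequencing errors.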

Values are log2 Kdimer, the median over the changes at each position: higher means that changes there hinder dimer formation, below 0 that they favour it.
One numbering serves 1G, 2G and 3G.
A position is written with its base.

position | 2G capped high-salt | 2G capped low-salt | 2G uncapped high-salt | 2G uncapped low-salt
C260 | 4.44 | 3.05 | 5.57 | 3.83
G261 | 4.52 | 3.00 | 7.18 | 3.73
C262 | 3.10 | 3.06 | 4.30 | 3.85
A263 | 0.11 | 1.09 | 0.30 | 1.04
C264 | 1.98 | 2.59 | 2.41 | 3.36
G265 | 2.64 | 2.86 | 3.21 | 3.25
G266 | 4.61 | 3.22 | 6.85 | 3.81
C267 | 4.01 | 2.73 | 4.94 | 3.05
A268 | 2.95 | 2.63 | 2.87 | 3.15
A269 | 1.57 | 1.62 | 1.48 | 1.81
G270 | 1.05 | 0.78 | 0.86 | 0.95
A271 | 0.15 | -0.13 | -0.05 | -0.23
G272 | -0.33 | -0.37 | -0.22 | -0.50
G273 | -0.43 | -0.33 | -0.30 | -0.67
C274 | 0.10 | 0.85 | 0.31 | 1.32
G275 | 2.74 | 1.74 | 2.58 | 2.60
A276 | 3.24 | 2.67 | 3.49 | 3.03
G277 | 2.50 | 1.98 | 2.53 | 2.28
G278 | 0.37 | 0.42 | 0.34 | 0.40
G279 | -0.10 | 0.03 | 0.10 | -0.21
G280 | -0.22 | -0.59 | -0.33 | -0.66
C281 | 0.44 | 0.25 | 0.57 | 0.47
G282 | 0.28 | 1.03 | 0.79 | 1.07
G283 | -0.08 | -0.18 | 0.03 | -0.13
C284 | 0.27 | 0.40 | 0.46 | 0.61
G285 | 1.15 | 0.95 | 1.31 | 1.41
A286 | 0.47 | -0.12 | 0.31 | 0.49
C287 | -0.27 | -0.68 | -0.16 | -0.64
U288 | -0.28 | -0.11 | -0.15 | -0.12
G289 | 0.44 | 0.09 | 0.33 | 0.23
G290 | 0.00 | 0.18 | 0.24 | 0.39
U291 | 0.04 | -0.32 | 0.02 | -0.32
G292 | -0.26 | -0.23 | -0.17 | -0.38
A293 | -0.13 | -0.35 | 0.00 | -0.30
G294 | -0.31 | -0.80 | -0.11 | -0.74
U295 | -0.31 | -0.70 | -0.05 | -0.63
A296 | 0.62 | 0.16 | 0.69 | 0.19
C297 | 0.01 | -0.03 | 0.37 | 0.02
G298 | -0.40 | -0.59 | -0.42 | -0.49
C299 | -0.06 | -0.44 | 0.24 | -0.58
C300 | -0.09 | -0.31 | 0.06 | -0.53
A301 | 0.39 | 0.40 | 0.46 | 0.37
A302 | 0.09 | -0.23 | 0.15 | -0.20
A303 | 0.08 | -0.02 | 0.11 | 0.09
A304 | -0.03 | 0.00 | 0.03 | 0.12
A305 | -0.25 | -0.05 | -0.18 | 0.09
U306 | 0.19 | 0.00 | 0.13 | 0.02
U307 | 0.15 | -0.11 | 0.21 | -0.11
U308 | 0.15 | -0.12 | 0.23 | -0.17
U309 | 0.29 | 0.23 | 0.20 | 0.04
G310 | -0.21 | -0.08 | 0.00 | 0.00
A311 | 0.61 | 0.81 | 0.71 | 0.87
C312 | 0.29 | 0.26 | 0.41 | 0.25
U313 | 1.14 | 1.26 | 1.26 | 1.70
A314 | 0.37 | -0.26 | 0.48 | -0.22
G315 | 0.33 | 0.55 | 0.43 | 0.51
C316 | 0.05 | 0.57 | 0.05 | 0.62
G317 | 0.06 | 0.27 | 0.13 | 0.16
G318 | 0.04 | -0.05 | 0.07 | -0.07
A319 | 0.17 | 0.06 | 0.21 | 0.18
G320 | -0.13 | -0.41 | -0.07 | -0.24
G321 | 0.63 | 1.22 | 0.68 | 0.82
C322 | 0.22 | 0.70 | 0.49 | 0.65
U323 | 0.50 | 0.63 | 0.95 | 0.47
A324 | 0.42 | 0.86 | 0.89 | 0.84

The first 6 entries again:

{"position": "C260", "2G capped high-salt": 4.44, "2G capped low-salt": 3.05, "2G uncapped high-salt": 5.57, "2G uncapped low-salt": 3.83}
{"position": "G261", "2G capped high-salt": 4.52, "2G capped low-salt": 3.00, "2G uncapped high-salt": 7.18, "2G uncapped low-salt": 3.73}
{"position": "C262", "2G capped high-salt": 3.10, "2G capped low-salt": 3.06, "2G uncapped high-salt": 4.30, "2G uncapped low-salt": 3.85}
{"position": "A263", "2G capped high-salt": 0.11, "2G capped low-salt": 1.09, "2G uncapped high-salt": 0.30, "2G uncapped low-salt": 1.04}
{"position": "C264", "2G capped high-salt": 1.98, "2G capped low-salt": 2.59, "2G uncapped high-salt": 2.41, "2G uncapped low-salt": 3.36}
{"position": "G265", "2G capped high-salt": 2.64, "2G capped low-salt": 2.86, "2G uncapped high-salt": 3.21, "2G uncapped low-salt": 3.25}